Compound potency records, mixed from different reports. Data source: NIAID ChemDB in PubChem.

All rows: toxicity to cultured cells; cell line: MT-2; endpoint: CC50

CCn: concentration that lowers growth or viability of the cells by n%. Rows are shuffled and stem from different studies.

{"structure": "Nc1nc(=O)n([C@@H]2C=C[C@H](CO)O2)cc1F", "result": ">100 µM"}
{"structure": "C=CCOc1nc(N)nc2c1ncn2[C@H]1C=C[C@@H](CO)C1", "result": ">100 µM"}
{"structure": "O=C(O[C@@H]1Cc2c(O)cc(O)cc2O[C@@H]1c1cc(O)c(O)c(O)c1-c1c([C@H]2Oc3cc(O)cc(O)c3C[C@H]2OC(=O)c2cc(O)c(O)c(O)c2)cc(O)c(O)c1O)c1cc(O)c(O)c(O)c1", "result": ">200 µM"}
{"structure": "CC(=O)COc1c(Br)c(O)c2c(c1Br)C(=O)C1C=C(C)C=C(O)C1C2=O", "method": "MTT", "result": "18 µM"}
{"structure": "CCOC(=O)Cc1c(C)nn(CC(=O)N[C@@H](Cc2ccccc2)C(=O)N(C)c2ccc3c(c2)OCO3)c1C(C)C", "method": "ATP", "result": ">20 µM"}
{"structure": "COc1nc(Nc2ccc(C#N)c(OCC=C(C)C)c2)nc(OCCCCOc2nc(Nc3ccc(C#N)c(OCC=C(C)C)c3)nc(OC)n2)n1", "method": "MTT", "result": "100 µM"}
{"structure": "Cc1cn([C@H]2C=C[C@@H](CO)O2)c(=O)[nH]c1=S", "result": ">80 µM"}
{"structure": "CCCOc1nc(N)nc2c1ncn2[C@H]1C=C[C@@H](CO)C1", "result": ">100 µM"}
{"structure": "[2H]c1nc2cc(N(C)C(=O)[C@H](Cc3cc(F)cc(F)c3)NC(=O)NS(=O)(=O)N3CCc4cccnc43)ccc2s1", "method": "XTT", "result": ">100 µM"}
{"structure": "Cc1cn([C@H]2CC[C@@H](CO)O2)c(=O)[nH]c1=S", "result": "90 µM"}
{"structure": "Cc1nc2sc3c(c2c(-c2cnc4cc[nH]c4c2)c1C(OC(C)(C)C)C(=O)O)CCCC3", "result": ">20 µM"}
{"structure": "O=C(O)c1cc(-c2ccc(/C=C3\\SC(=S)N(c4cccc([N+](=O)[O-])c4)C3=O)o2)ccc1Cl", "method": "XTT", "result": ">328 µM"}
{"structure": "O=C(O[C@@H]1Cc2c(O)cc(O)cc2O[C@@H]1c1cc(O)c(O)c(O)c1)c1cc(O)c(O)c(O)c1", "result": "191.6 µM"}
{"structure": "Cc1c(CCO)c(C2CC2)nn1CC(=O)N[C@@H](Cc1ccccc1)C(=O)N(C)c1ccc2ncnn2c1", "method": "ATP", "result": ">20 µM"}
{"structure": "Cc1cn([C@H]2C=C[C@@H](OCP(=O)(O)O)O2)c(=O)[nH]c1=O", "result": ">100 µg/mL"}
{"structure": "CN(C(=O)[C@H](Cc1cc(F)cc(F)c1)NC(=O)NS(=O)(=O)N1CCc2cccnc21)c1ccc(OC(F)(F)F)nc1", "method": "XTT", "result": ">100 µM"}
{"structure": "Cc1c(CCO)c(C(F)(F)F)nn1CC(=O)N[C@@H](Cc1ccccc1)C(=O)N(C)c1ccc2c(c1)OCO2", "method": "ATP", "result": ">20 µM"}
{"structure": "COc1ccccc1N1C(=O)S/C(=C\\c2ccc(-c3cccc(C(=O)O)c3)o2)C1=O", "method": "XTT", "result": "56.2 µM"}
{"structure": "Cc1nc2sc3c(c2c(-c2ccc(Cl)cc2O)c1[C@H](OC(C)(C)C)C(=O)O)CCCC3", "result": ">20 µM"}
{"structure": "Cc1cccc(Cl)c1CN1CCc2cc(-c3cnc(C)c([C@H](OC(C)(C)C)C(=O)O)c3N3CCC(C)(C)CC3)ccc2C1", "method": "MTT", "result": "≥19.5 µM"}
{"structure": "Cn1nc(NS(C)(=O)=O)c2c(Cl)ccc(-n3c([C@H](Cc4cc(F)cc(F)c4)NC(=O)Cn4nc(C(F)F)c5c4C(F)(F)[C@@H]4C[C@H]54)nc4nc(OCc5ncccn5)ccc4c3=O)c21", "method": "XTT", "result": ">1 µM"}
{"structure": "CC1CN(S(=O)(=O)NC(=O)N[C@@H](Cc2cc(F)cc(F)c2)C(=O)N(C)c2ccc3scnc3c2)c2ncccc21", "method": "XTT", "result": ">100 µM"}
{"structure": "Cc1ccc(NC(=O)CN2C(=O)S/C(=C\\c3ccc(-c4cc(C(=O)O)ccc4C)o3)C2=O)cc1C", "method": "XTT", "result": ">326.4 µM"}
{"structure": "O=c1[nH]c(=O)n([C@H]2C=C[C@@H](OCP(=O)(O)O)O2)cc1Cl", "result": ">100 µg/mL"}
{"structure": "CCCOc1nc(N)nc2c1ncn2[C@@H]1C=C[C@H](CO)C1", "result": "95.5 µM"}
{"structure": "CN(C)C(=O)C1Cc2cccnc2N1S(=O)(=O)NC(=O)N[C@@H](Cc1cc(F)cc(F)c1)C(=O)N(C)c1ccc2scnc2c1", "method": "XTT", "result": ">100 µM"}
{"structure": "Cc1ccccc1S(=O)(=O)NC(=O)N[C@@H](Cc1ccccc1)c1nccn1-c1ccc([NH+]([O-])O)cc1", "method": "XTT / absorbance", "result": ">100 µM"}
{"structure": "CN(C)C(=O)[C@H]1CC=CN1S(=O)(=O)NC(=O)N[C@@H](Cc1cc(F)cc(F)c1)C(=O)N(C)c1ccc2scnc2c1", "method": "XTT", "result": ">100 µM"}
{"structure": "Cc1ccc(N2C(=O)/C(=C/c3ccc(-c4ccc(Cl)c(C(=O)O)c4)o3)SC2=S)c(C)c1", "method": "XTT", "result": "29.5 µM"}
{"structure": "O=C(Cn1nc(C(F)F)cc1C1CC1)N[C@@H](Cc1cc(F)cc(F)c1)c1nc2nc(-c3ncccn3)ccc2c(=O)n1-c1ccc(Cl)c2c(NS(=O)(=O)C3CC3)nn(CC(F)F)c12", "method": "XTT", "result": ">0.5 µM"}
{"structure": "Cc1cc(C#CCOCCOCCOCC#Cc2cn(C3C=CC(COP(=O)(O)O)O3)c(=O)[nH]c2=O)cc(C)c1Oc1ccnc(Nc2ccc(C#N)cc2)n1", "method": "MTT", "result": "~1.8 nM"}
{"structure": "CCn1c(C2CC2)nc(CC(=O)N[C@@H](Cc2ccccc2)C(=O)N(C)c2ccc3c(c2)OCO3)c1C", "method": "ATP", "result": ">20 µM"}
{"structure": "CCOC(C(=O)O)c1c(C)nc2sc3c(c2c1-c1ccc2cnn(C)c2c1)CCCC3", "result": ">20 µM"}
{"structure": "COc1ccc(N(C)C(=O)[C@H](Cc2cc(F)cc(F)c2)NC(=O)NS(=O)(=O)N2C=CC[C@@H]2C(=O)N(C)C)cc1", "method": "XTT", "result": ">100 µM"}
{"structure": "CCc1cn([C@H]2C=C[C@@H](OCP(=O)(O)O)O2)c(=O)nc1N", "result": ">100 µg/mL"}
{"structure": "CCc1c(CC(=O)N[C@@H](Cc2ccccc2)C(=O)N(C)c2ccc3c(c2)OCO3)c(C)nn1CCO", "method": "ATP", "result": ">20 µM"}
{"structure": "N#Cc1ccc(Oc2cc(Cl)cc(Cl)c2)c(OCCn2ccc(=O)[nH]c2=O)c1", "result": ">61 µM"}
{"structure": "CC1Cc2cccnc2N1S(=O)(=O)NC(=O)N[C@@H](Cc1cc(F)cc(F)c1)C(=O)N(C)c1ccc2scnc2c1", "method": "XTT", "result": ">1 µM"}
{"structure": "N#C/C=C/c1cc(Cl)cc(Oc2ccccc2OCCn2ccc(=O)[nH]c2=O)c1", "result": "11 µM"}
{"structure": "O=C(O[C@@H]1Cc2c(O)cc(O)cc2O[C@@H]1c1cc(O)c(=O)c2c(O)c(O)cc([C@H]3Oc4cc(O)cc(O)c4C[C@H]3OC(=O)c3cc(O)c(O)c(O)c3)c2c1)c1cc(O)c(O)c(O)c1", "result": ">200 µM"}
{"structure": "COc1cc(C)c(/C=C/C2NCCc3cc(OCc4ccccc4)c(OC)cc32)cc1OCc1ccccc1", "method": "fluorescence", "result": "1.4 µM"}
{"structure": "C[Si](O)(O[Si](C)(CCCn1cnc2c(N)ncnc21)c1ccccc1)c1ccccc1", "result": "100 µM"}
{"structure": "N#Cc1cc(Cl)cc(Oc2cc(Cl)ccc2OCCn2ccc(=O)[nH]c2=O)c1", "result": "32 µM"}
{"structure": "COC(=O)[C@H](Cc1ccccc1)NC(=O)[C@H]1/C(=C/CO)O[C@@H]2CC(=O)N21", "result": ">100 µg/mL"}
{"structure": "CNc1nc(N)nc2c1ncn2[C@H]1C=C[C@@H](CO)C1", "result": ">100 µM"}
{"structure": "Cc1nn(CC(=O)N[C@@H](Cc2ccccc2)C(=O)N(C)c2ccc3c(c2)OCO3)c(C2CC2)c1CC(=O)O", "method": "ATP", "result": ">20 µM"}
{"structure": "Cc1ccccc1S(=O)(=O)NC(=O)N[C@@H](Cc1ccccc1)c1nccn1-c1cccc(OCc2ccccc2)c1", "method": "XTT / absorbance", "result": ">100 µM"}
{"structure": "COP(=O)(c1cc(C)cc(CCC#N)c1)c1c(C(N)=O)[nH]c2ccc(Cl)cc12", "method": "MTS", "result": "25.9 µM"}
{"structure": "Cc1nc2sc3c(c2c(-c2ccccc2CO)c1C(OC(C)(C)C)C(=O)O)CCCC3", "result": ">20 µM"}
{"structure": "CC1=CC2C(=O)c3cc(O)cc(O)c3C(=O)C2C(O)=C1", "method": "MTT", "result": "70 µM"}
{"structure": "Nc1nc(=O)n([C@H]2C=C[C@@H](OCP(=O)(O)O)O2)cc1I", "result": ">100 µg/mL"}
{"structure": "Cc1nc2sc3c(c2c(-c2ccc(C(F)F)cc2)c1[C@H](OC(C)(C)C)C(=O)O)CCCC3", "result": ">20 µM"}
{"structure": "O=C(O)C(O)c1ccccc1", "result": ">50 µg/mL"}
{"structure": "O=C(N[C@@H](Cc1cc(F)cc(F)c1)c1ncccc1Br)NS(=O)(=O)c1ccccc1Cl", "method": "XTT / absorbance", "result": ">100 µM"}
{"structure": "Cc1c(-c2c([C@H](OC(C)(C)C)C(=O)O)cnc3ccccc23)cc(F)c2c1CCCO2", "result": "76 µM"}
{"structure": "CC(C)Oc1nc(N)nc2c1ncn2[C@H]1C=C[C@@H](CO)C1", "result": ">100 µM"}

Repeating the final 4 entries:

O=C(O)C(O)c1ccccc1 ; result: >50 µg/mL
O=C(N[C@@H](Cc1cc(F)cc(F)c1)c1ncccc1Br)NS(=O)(=O)c1ccccc1Cl ; method: XTT / absorbance ; result: >100 µM
Cc1c(-c2c([C@H](OC(C)(C)C)C(=O)O)cnc3ccccc23)cc(F)c2c1CCCO2 ; result: 76 µM
CC(C)Oc1nc(N)nc2c1ncn2[C@H]1C=C[C@@H](CO)C1 ; result: >100 µM